The test addresses T1, gp41 loop peptide antigen (linear peptide, HIV-1 consensus clade B sequence) (HIV-1 consensus clade B (synthetic …)).
T1 chain: LGIWGCSGKLICTT
Put plainly: ELISA. For orientation: An ELISA detects its analyte on a solid surface through an enzyme-linked reagent.

Like-named read-outs stand apart in the source and are kept apart here.

B1: MAb 7B2 (antibody, V domains shown)
VH: QVQLVQSGGGVFKPGGSLRLSCEASGFTFTEYYMTWVRQAPGKGLEWLAYISKNGEYSKYSPSSNGRFTISRDNAKNSVFLQLDRLSADDTAVYYCARADGLTYFSELLQYIFDLWGQGARVTVSS
VL: DIVMTQSPDSLAVSPGERATIHCKSSQTLLYSSNNRHSIAWYQQRPGQPPKLLLYWASMRLSGVPDRFSGSGSGTDFTLTINNLQAEDVAIYYCHQYSSHPPTFGHGTRVELR
notes: source: tissue culture (hybridoma) supernatant, purified on Protein A agarose beads
Regarding B1, for the setting “both partners purified”, the binding result was “binds”.

B2: 7B2-PAC immunotoxin (MAb 7B2 conjugated to recombinant pulchellin A chain) (antibody, V domains shown)
VH: B1 VH
VL: B1 VL
In the case of B2, the binding result is on record as “binds”.

These data come from paper PMC5548917, “Selective cytotoxicity of a novel immunotoxin based on pulchellin A chain for cells expressing HIV envelope” (Scientific Reports, 2017).
